This data set concerns the target T1, ancrod (recombinant SVSP) (UniProt P26324).
T1 sequence (looked up, limits assumed): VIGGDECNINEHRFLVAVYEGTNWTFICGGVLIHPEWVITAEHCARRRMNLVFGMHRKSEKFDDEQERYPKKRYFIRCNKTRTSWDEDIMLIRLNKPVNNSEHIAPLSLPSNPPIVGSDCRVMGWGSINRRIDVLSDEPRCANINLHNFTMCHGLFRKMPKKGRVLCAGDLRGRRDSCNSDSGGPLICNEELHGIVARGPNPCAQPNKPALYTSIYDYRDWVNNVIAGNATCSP
As to the kind of experiment: fluorescence bead binding assay. To be noted: 2 mM Mg2+, high Kd, no value, Kd: 50 mM Tris-HCl pH 7.5, 150 mM NaCl, 2 mM MgCl2, RT, 1 h, toxin on Sepharose beads, ALISA: 100 ng toxin coated, aptamer in nuclease-free water, 2 h, PBST washes, recombinant protein, label: 6-FAM, single-stranded DNA.

The exact form of at least one protein or probe is not confirmed. A weaker result is weaker than the reference pair of the same experiment. At least one verdict was read from the data and is not stated in words by the source. Where a protein sequence is shown, tags need not be part of it.

Regarding “ACGCTTGATCCTCCGAAATGTCCTGATCCTCGGCCTGTCA [ancrod-5]”, the binding result is given as “binds more weakly”.

As to “GGTGCGTTTCACCTCGAGTTTACGATAAATCACCTTCGAG [ancrod-25]”, the binding result is recorded as “binds more weakly”.

With “GTAAATTGTACAGGTGTATGGATTGCTAGGTCTGCTGGTT [ancrod-12]”, the binding result was “binds more weakly”.

Regarding “GTGTATTGTGATAGTCGGTAATTCCCTGACTACGCCGTAT [ancrod-31]”, the binding result is on record as “binds more weakly”.

On to “TAGTAACAGGTCTGCTTAGGCTTGCGAGGAATACTAGTAC [ancrod-48 (printed ncrod-48)]”, for which the binding result was “binds more weakly”.

On to “TATTAAGGGACTGCTCGGGATTGCGGATATAGGTATGAGC [ancrod-30]”, for which the binding result was “binds more weakly”.

With “TGCTCACACGTCCTGTGTGATTATGTCAGGCATTCACATG [ancrod-1]”, the binding result was “binds more weakly”.

Take “TGCTGGGAAATCCTCCCATTATGTCAGTATGTCTCGACAT [ancrod-2]”: the binding result is “binds more weakly”.

Regarding “TGTCTGGTTTGCAAAGGACTGCTGTACTGTTAGCTTTTGT [ancrod-18]”, the binding result is given as “binds more weakly”.

In the case of “TTGGGCCCTCTAGTGATGGATATCTGCAGAATTCGCCCTT [ancrod-32]”, the binding result was “binds more weakly”.

These data come from PMC9318713.
